{"source": "PubChem BioAssay AID504761, Drosophila RNAi Screening Center – 2011", "screen": "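Fly genes whose silencing reduces dengue virus type 2 infection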 (primary screen)", "system": "D.Mel-2 cells from Drosophila", "reagent": "long dsRNA against Drosophila genes", "conditions": "infection with dengue virus type 2; dose and infection time not stated", "read-out": "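Cells stained for dengue envelope protein and imaged; percent of infected cells per well on duplicate plates, ranked by infection, with stained nuclei counted for cell number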", "scale": "infection score: higher = more virus-infected cells; cell count: higher = more cells in the well", "rule for the call": "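Low infection ranks in the two replicates (chance level up to 0.065) followed by a retest with a 1.5-fold or larger significant decrease, p below 0.05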", "meaning of the calls": "active = confirmed: knock-down lowers infection; inactive = not picked or not confirmed", "note": "The deposit covers about 22,000 reagents; shown is a random part of those that have a named target and a result. In the full data, 116 (0.52%) were called active. 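Calls depend on retest data that are not deposited; infection was ranked per plate without normalising between plates; the unit of the infection score is not given.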 Raw values are not corrected between plates. No sequences are given here. The record does not give: the amount of reagent, the time to read-out."}
{"Target gene": "bumpel", "amplicon": "DRSC16100", "infection score, replicate 1": 4.36, "infection score, replicate 2": 5.08, "cell count, replicate 1": 6809, "cell count, replicate 2": 6532, "activity call": "inactive"}
{"Target gene": "CG43896", "amplicon": "DRSC10754", "infection score, replicate 1": 3.07, "infection score, replicate 2": 2.52, "cell count, replicate 1": 5865, "cell count, replicate 2": 6316, "activity call": "inactive"}
{"Target gene": "CG43896", "amplicon": "DRSC26965", "infection score, replicate 1": 10.8, "infection score, replicate 2": 5.8, "cell count, replicate 1": 6410, "cell count, replicate 2": 6451, "activity call": "inactive"}
{"Target gene": "CG5853", "amplicon": "DRSC01103", "infection score, replicate 2": 0.09, "cell count, replicate 2": 6557, "activity call": "inactive"}
{"Target gene": "CG5853", "amplicon": "DRSC02906", "infection score, replicate 1": 5.98, "infection score, replicate 2": 8.93, "cell count, replicate 1": 6874, "cell count, replicate 2": 6037, "activity call": "inactive"}
{"Target gene": "CG34284", "amplicon": "DRSC14773", "infection score, replicate 1": 4.79, "infection score, replicate 2": 1.43, "cell count, replicate 1": 6471, "cell count, replicate 2": 6097, "activity call": "inactive"}
{"Target gene": "Sou", "amplicon": "DRSC04356", "infection score, replicate 1": 12.4, "infection score, replicate 2": 14.6, "cell count, replicate 1": 6252, "cell count, replicate 2": 5691, "activity call": "inactive"}
{"Target gene": "Cndp2", "amplicon": "DRSC04873", "infection score, replicate 1": 3.45, "infection score, replicate 2": 4.57, "cell count, replicate 1": 5997, "cell count, replicate 2": 6612, "activity call": "inactive"}
{"Target gene": "CG6650", "amplicon": "DRSC10685", "infection score, replicate 1": 9.01, "infection score, replicate 2": 11.3, "cell count, replicate 1": 5835, "cell count, replicate 2": 5190, "activity call": "inactive"}
{"Target gene": "PH4alphaNE3", "amplicon": "DRSC16541", "infection score, replicate 1": 3.38, "infection score, replicate 2": 6.39, "cell count, replicate 1": 6188, "cell count, replicate 2": 6762, "activity call": "inactive"}
{"Target gene": "PH4alphaNE3", "amplicon": "DRSC24337", "infection score, replicate 1": 2.59, "infection score, replicate 2": 2.02, "cell count, replicate 1": 6107, "cell count, replicate 2": 6574, "activity call": "inactive"}
{"Target gene": "CG14631", "amplicon": "DRSC17792", "infection score, replicate 1": 1.82, "infection score, replicate 2": 0.38, "cell count, replicate 1": 6223, "cell count, replicate 2": 6310, "activity call": "inactive"}
{"Target gene": "CG14631", "amplicon": "DRSC17941", "infection score, replicate 1": 1.58, "infection score, replicate 2": 0.47, "cell count, replicate 1": 5954, "cell count, replicate 2": 6128, "activity call": "inactive"}
{"Target gene": "CG13008", "amplicon": "DRSC19527", "infection score, replicate 1": 5.83, "infection score, replicate 2": 4.52, "cell count, replicate 1": 6312, "cell count, replicate 2": 6311, "activity call": "inactive"}
{"Target gene": "CG13008", "amplicon": "DRSC19528", "infection score, replicate 1": 0.94, "infection score, replicate 2": 8.26, "cell count, replicate 1": 6599, "cell count, replicate 2": 6319, "activity call": "inactive"}

Records above whose gene name starts with P or p (2):
{"Target gene": "PH4alphaNE3", "amplicon": "DRSC16541", "infection score, replicate 1": 3.38, "infection score, replicate 2": 6.39, "cell count, replicate 1": 6188, "cell count, replicate 2": 6762, "activity call": "inactive"}
{"Target gene": "PH4alphaNE3", "amplicon": "DRSC24337", "infection score, replicate 1": 2.59, "infection score, replicate 2": 2.02, "cell count, replicate 1": 6107, "cell count, replicate 2": 6574, "activity call": "inactive"}
